Results taken from US10526278B2, “Inhibitors of quorum sensing receptor LasR” (priority 2017, dated 2020).

Sequences of proteins named here, by UniProt entry; tags and fusion partners are left off.
UniProt P25084, whole entry: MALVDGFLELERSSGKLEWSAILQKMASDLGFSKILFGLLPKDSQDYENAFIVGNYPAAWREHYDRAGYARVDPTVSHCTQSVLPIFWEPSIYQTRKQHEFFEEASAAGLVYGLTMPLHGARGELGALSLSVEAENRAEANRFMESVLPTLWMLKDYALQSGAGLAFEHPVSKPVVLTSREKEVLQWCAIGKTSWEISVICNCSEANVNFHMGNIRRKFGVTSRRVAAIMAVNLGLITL

Assays:
LasR = LasR (Pseudomonas aeruginosa, UniProt P25084); conditions: measured vs 25 nM OdDHL; for IC50: read-out: IC50 (95% CL)
P. aeruginosa PAO1 = assay: Elastase B production in P. aeruginosa PAO1 culture supernatants (elastin-Congo red); conditions: FIG. 12A; for inhibition of elastase in combination with PqsR inhibitor M64: compound 100 μM plus M64 20 μM
Method: FIG. 12A is a graph comparing inhibition of elastase (as % relative to DMSO) for certain compounds of the invention. The amount of indicated compound added was 100 μM. M64 alone or in combination was added in the amount of 20 μM. The assay is conducted as described in Welsh et al. (2016) for compounds shown as well as certain compounds in combination with compound M-64 (Starkey, M. et al. (2014)):
The amount of elastase B in P. aeruginosa culture supernatants was measured following a reported protocol (Welsh et al., 2017 and Geske et al., 2007b) with modifications. A 10 mL overnight culture of P. aeruginosa PAO1 was grown for 16 hr. An inoculating culture was prepared by diluting the overnight culture 1:100 into freshly prepared assay medium, and 2 mL aliquots of this subculture were added to each test tube (0.5% DMSO, final). The cultures were grown for 17 hr, and the final cell density measured by reading OD600. Aliquots of the final culture supernatant (50 μL) were added to the wells of a clear, plastic 96-well plate. To each well, 150 μL of 0.5% (w/v) elastin-Congo red conjugate (Elastin Products) in Tris buffer (10 mM Tris-HCl, 1 mM CaCl2) [pH 7.2]) was added. The plate was sealed with a polypropylene storage mat (Costar 3080) and incubated in a 37″C shaking incubator (200 rpm) attached to a Labquake rotator for 24 hr (in LB medium).
To quantify elastase B activity, the undigested elastin was pelleted by centrifugation of the assay plate at […] for 10 min, after which […] of the supernatant was transferred to a new, clear 96-well plate, and the absorbance at 490 nm measured. Media background absorbance (measured from a “no bacteria” control) was subtracted, the resulting values growth normalized by dividing by the final OD600, and the data plotted relative to a DMSO-treated positive control.

Row | SMILES | Maximum Inhibition (95% CL) (LasR) | IC50 (LasR) [nM] | inhibition of elastase in combination with PqsR inhibitor M64 (P. aeruginosa PAO1) | inhibition of production of virulence factor elastase (P. aeruginosa PAO1; compound alone 100 μM, % elastase relative to DMSO)
1 | CCCCCCCCCNC(=O)CC(=O)c1cccc(F)c1 | 84 (100-70) % | 8800 | – | –
2 | CCCCCCCCCCCCNC(=O)CC(=O)c1ccccc1 | 83 (88-78) % | 2500 | – | –
3 | CCCCCCCCCNC(=O)CC(=O)c1cccc(O)c1 | 100% | 4700 | inhibit elastase synergistically | –
4 | CCCCCCCCCNC(=O)CC(=O)c1ccccc1F | 74 (93-76) % | 3200 | – | –
5 | CCCCCCCCCNC(=O)CCc1ccccc1 | 80 (87-73) % | 7500 | – | –
6 | CCCCCCCCCCNC(=O)CC(=O)c1ccccc1 | 76 (85-67) % | 1100 | – | –
7 | CCCCCCCCCNC(=O)CC(=O)c1ccco1 | 74 (81-69) % | 600 | inhibit elastase synergistically | inhibits the production of virulence factor elastase
8 | CCCCCCCCCCCCNC(=O)CC(=O)c1ccco1 | 82 (85-78) % | 500 | inhibit elastase synergistically | –
